Anti-infective test results gathered from many reports (values: NIAID ChemDB through PubChem).

Shared fields: whole-cell or culture tests; species: Mycobacterium tuberculosis

Rows are shuffled and stem from different studies. ECn: concentration that inhibits the pathogen or its effect by n%. MIC bound comes from a single tested concentration. Two numbers with a dash give a range or band. Inhibition is in % at the dose shown (toxicity tests: loss of growth or viability). An empty or dashed field is not shown. A number after MIC or MFC names an inhibition level or a share of isolates.

SMILES,cell line,strain,read by,measure,dose,value
CC(=O)OC1(c2ccccc2)C=CC(=O)C=C1,,H37Rv,,MIC,,>6.25 µg/mL
Cc1ccc([N+](=O)[O-])cc1NC(=O)NNC(=O)CNC(=O)c1ccc(Cl)cc1,,H37Rv,BACTEC,MIC bound,,>12.5 µg/mL
O=C(c1ccncc1)N(/N=C/c1cccc([N+](=O)[O-])c1)C(=O)c1cnccn1,,9 isolates (resistant),,MIC,,>16 µg/mL
O=C(O)c1nc(C2CCCC2)[nH]c1C1CCCC1,,H37Rv,,inhibition,6.25 µg/mL,0%
CCOC(=O)/C(N=Nc1ccc(-c2n[nH]c(=S)n2C)cc1)=C(\C)O,,H37Rv,,inhibition,6.25 µg/mL,1%
COc1ccc(/C=N/N(C(=O)c2ccncc2)C(=O)c2cnccn2)cc1,,9 isolates (sensitive),,MIC,,1–2 µg/mL
CCC(C)c1c(NC(C)=O)o[nH]c1=O,,H37Rv,BACTEC,MIC bound,,>12.5 µg/mL
N=C1C=CC(O)(c2nc3ccccc3s2)C(SCC(NC(=O)CCC(N)C(=O)O)C(=O)NCC(=O)O)C1,,H37Rv,,inhibition,6.25 µg/mL,28%
N#Cc1c(-c2ccc(Cl)cc2)c([N+](=O)[O-])c2c3ccccc3ccn12,,H37Rv,agar,MIC,,9 µM
CN[C@@H]1[C@H](O[C@H]2[C@H](O[C@H]3[C@H](O)[C@@H](O)[C@H](N=C(N)N)[C@@H](O)[C@@H]3N=C(N)N)O[C@@H](C)[C@]2(O)C=O)O[C@@H](CO)[C@H](O)[C@H]1O,,05001 (H37RV),,MIC,,25 µg/mL
N#CC1C(c2cc3ccccc3nc2Cl)C2=C(CCCC2=O)N(c2cccnc2)C1N,,H37Rv,,inhibition,6.25 µg/mL,12%
Cc1[nH]c(C)c(CN(C)C)c1CN(C)C,,H37Rv,BACTEC,inhibition,12.5 µg/mL,16%
C[C@@H]1CN(c2c(F)c(N)c3c(=O)c(C(=O)O)cn(C4CC4)c3c2F)C[C@H](C)N1,,90-0240 (drug-susceptible),,MIC,,0.1 µg/mL
O=c1n(CC2CO2)c(=O)n(CC2CO2)n1CC1CO1,,H37Rv,resazurin,inhibition,6.25 µg/mL,23%
CO[C@H]1/C=C/O[C@@]2(C)Oc3c(C)c(O)c4c(O)c(c(/C=N/N5CCN(C)CC5)c(O)c4c3C2=O)NC(=O)/C(C)=C\C=C\[C@H](C)[C@H](O)[C@@H](C)[C@@H](O)[C@@H](C)[C@H](OC(C)=O)[C@@H]1C,,H37Rv,,MIC,,0.4 µg/mL
Cc1nn(-c2ccccc2)c2c1C(c1cccc(Br)c1)c1c(nc(=S)[nH]c1N)O2,,H37Rv,,inhibition,62.5 µg/mL,42%
CCOC(=O)c1c(-c2ccc(C)cc2)cc2c3ccccc3ccn12,,H37Rv,agar,MIC,,16.7 µM
NNC(=O)CCc1cnc(C2C3CC4CC(C3)CC2C4)[nH]1,,H37Rv,,MIC,,>6.25 µg/mL
CC1=C2C(=CO[C@H](C)[C@H]2C)C(=O)C(C(=O)O)=C1O,,M.AV,,inhibition,400 µg/mL,91%
O=C1N(Cl)C(=O)C(c2ccccc2)(c2ccccc2)N1Cl,,H37Rv,BACTEC,MIC bound,,>12.5 µg/mL
COC(=O)C1C(c2cc3ccccc3nc2Cl)C2=C(CCCC2=O)N(c2cccnc2)C1N,,H37Rv,,inhibition,6.25 µg/mL,90%
O=C(c1ccncc1)N(NCc1cccc([N+](=O)[O-])c1)C(=O)c1cnccn1,,9 isolates (sensitive),,MIC,,0.25 µg/mL
CC(=O)Nc1ccc(/C=N/NC(N)=S)cc1,,H37Rv,,MIC,,0.3 µg/mL
CCC1CN2CCc3cc(OC)c(OC)cc3C2CC1CC1c2cc(OC)c(OC)cc2CCN1C(=O)C1CCCN1,,H37Rv,BACTEC,MIC bound,,>12.5 µg/mL
CO[C@H]1/C=C/O[C@@]2(C)Oc3c(C)c(O)c4c(O)c(c(/C=N/N5CCN(C)CC5)c(O)c4c3C2=O)NC(=O)/C(C)=C\C=C\[C@H](C)[C@H](O)[C@@H](C)[C@@H](O)[C@@H](C)[C@H](OC(C)=O)[C@@H]1C,,05001 (H37RV),,MIC,,0.8 µg/mL
O=C(N/N=C/c1c(F)c(F)c(F)c(F)c1F)c1cnc(C2C3CC4CC(C3)CC2C4)[nH]1,,H37Rv,,inhibition,6.25 µg/mL,5%
Cn1cn[nH]c1=S,,My 331/88,,MIC,,1000 µM
Cc1nn(-c2ccccc2)c2c1C(c1cccc([N+](=O)[O-])c1)C(C#N)=C(N)O2,,H37Rv,,inhibition,62.5 µg/mL,41%
Cc1ccc(-c2c([N+](=O)[O-])c3c4ccccc4ccn3c2C#N)cc1,,H37Rv,agar,MIC,,9.6 µM
CCCCCCCNC(=O)CCc1cnc(C2C3CC4CC(C3)CC2C4)[nH]1,,H37Rv,,MIC,,>6.25 µg/mL
CC1=CC=CN2CCC(=O)N=C12,,H37Rv,resazurin,MIC bound,,>6.25 µg/mL
COc1ccc(C2C(C#N)=C(N)Oc3c2c(C)nn3-c2ccccc2)cc1,,H37Rv,,inhibition,62.5 µg/mL,5%
COC1OC2COC(C)(C)OC2C1NS(=O)(=O)Cc1ccccc1,,H37Rv,BACTEC,inhibition,12.5 µg/mL,12%
COc1ccc2nc(Cl)c(C3C4=C(CCCC4=O)N(c4cccnc4)C(N)C3C#N)cc2c1,,H37Rv,,inhibition,6.25 µg/mL,65%
CO[C@H]1/C=C/O[C@@]2(C)Oc3c(C)c(O)c4c(O)c(c(/C=N/N5CCN(C6CCCC6)CC5)c(O)c4c3C2=O)NC(=O)/C(C)=C\C=C\[C@H](C)[C@H](O)[C@@H](C)[C@@H](O)[C@@H](C)[C@H](OC(C)=O)[C@@H]1C,,1 isolates (rpoB Ser531Tyr),,MIC,,>8 µg/mL
NC(=S)c1cccc(CSc2ncn[nH]2)c1,,My 331/88,,MIC,,1000 µM
CC(C)C(O)(C(=O)OCC1=CCN2CCC(O)C12)C(C)O,,H37Rv,BACTEC,inhibition,12.8 µg/mL,13%
COC(=O)c1ccc(NC(=O)C(Cl)Cl)cc1S(=O)(=O)NC(=O)Nc1nccc(OC)n1,,H37Rv,,MIC,,40 µg/mL
O=NNc1ccc2cccnc2n1,,H37Rv,BACTEC,inhibition,12.5 µg/mL,4%
Cc1nn(-c2ccccc2)c2c1C(c1ccc(O)cc1)c1c(nc(=S)[nH]c1N)O2,,H37Rv,,inhibition,62.5 µg/mL,96%
NNC(=O)c1ccncc1,,90-0201 (drug-susceptible),,MIC,,0.04 µg/mL
NO,,H37Rv,,MIC90,,17.5 µg/mL
O=C(Cc1nc2ccc(C(=O)c3ccccc3)cc2[nH]c1=O)C(=O)Nc1nc2ccccc2[nH]1,,,BACTEC,inhibition,0.5 µM,0%
CN[C@@H]1[C@H](O[C@H]2[C@H](O[C@@H]3[C@@H](N)[C@H](O)[C@@H](N)[C@H](O)[C@H]3O)O[C@@H](C)[C@]2(O)CO)O[C@@H](CO)[C@H](O)[C@H]1O,,666,,MIC,,>100 µg/mL
Cc1ccc(C2C(C#N)=C(N)Oc3c2c(C)nn3-c2ccccc2)cc1,,H37Rv,,inhibition,62.5 µg/mL,97%
CNC1=CC(=O)c2c(c3cc(O)ccc3n2C)C1=O,,H37Rv,resazurin,MIC bound,,>6.25 µg/mL
COC(=O)CCc1cnc(C2C3CC4CC(C3)CC2C4)[nH]1,,H37Rv,,MIC,,>6.25 µg/mL
O=C(c1ccncc1)N(/N=C/c1ccc(Cl)cc1Cl)C(=O)c1cnccn1,,9 isolates (resistant),,MIC,,>16 µg/mL
O=C1C2C3ON(c4ccccc43)C2C(=O)N1c1ccccc1,,H37Rv,BACTEC,inhibition,12.8 µg/mL,23%
NNC(=O)CCc1cnc(C2CCCCC2)[nH]1,,H37Rv,,MIC,,>6.25 µg/mL
Cc1c2ccncc2c(C)c2c1[nH]c1ccc(Cl)cc12,VERO,H37Rv,resazurin,MIC,,0.78 µg/mL
COc1ccc(Cc2cnc(N)nc2N)cc1OC,,H37Rv,,MIC,,>123 µM
CC(C)N(O)C(=O)C(=O)O,,ATCC35801,,MIC,,>18 µg/mL
NCCC[C@H](N)CC(=O)N[C@H]1CNC(=O)[C@H]([C@H]2C[C@H](O)NC(N)=N2)NC(=O)/C(=C/NC(N)=O)NC(=O)[C@H](CO)NC(=O)[C@H](CO)NC1=O,,Isolate CKN-301 (rrs A1401G mutation),,MIC,,>80 µg/mL
O=C1C=CC(O)(c2cc3ccccc3s2)C=C1,,H37Rv,,MIC,,>6.25 µg/mL
COc1cc(OC)c(NC2=CC(c3ccc(Cl)cc3)OC2=O)cc1Cl,,H37Rv,BACTEC,MIC bound,,>12.5 µg/mL
Cc1[nH]n(-c2ccc([N+](=O)[O-])cc2)c(=O)c1N=Nc1ccc(-c2n[nH]c(=S)o2)cc1,,H37Rv,,inhibition,6.25 µg/mL,0%
CCOC(=O)/C(C#N)=N/Nc1ccc(C(=O)OCC)c(S(=O)(=O)NC(=O)Nc2nccc(OC)n2)c1,,H37Rv,,MIC,,>80 µg/mL
CC(C)(C)c1ncc(C(=O)O)[nH]1,,H37Rv,,MIC,,>6.25 µg/mL
COC(=O)C(C)NC(=O)c1c2nc3c(C(=O)NC(C)C(=O)OC)ccc(C)c3oc-2c(C)c(=O)c1N,,H37Rv,BACTEC,MIC bound,,>12.5 µg/mL
Fc1ccc(CSc2ncn[nH]2)cc1F,,My 331/88,,MIC,,>1000 µM
O=C1C=CC(O)(c2ccccc2)C=C1,,H37Rv,,MIC,,>6.25 µg/mL
NC[C@H]1O[C@H](O[C@H]2[C@H](O)[C@@H](O[C@H]3O[C@H](CO)[C@@H](O)[C@H](N)[C@H]3O)[C@H](N)C[C@@H]2N)[C@H](O)[C@@H](O)[C@@H]1O,,92-0492 MDR (INH RIF-resistant),,MIC,,2 µg/mL
CCOC(=O)C1C(c2cc3cc(OC)ccc3nc2Cl)C2=C(CCCC2=O)N(c2cccnc2)C1N,,H37Rv,,MIC,,12.5 µg/mL
O=C1C=CC(O)(c2cccc3ccccc23)C=C1,,H37Rv,,MIC,,<6.25 µg/mL
CC1(C)Oc2cc3oc(C(=O)O)cc(=O)c3cc2-c2ccccc21,,H37Rv,BACTEC,inhibition,12.5 µg/mL,95%
O=C(O)C(=NNc1ccc(C(=O)N/N=C/c2ccc([N+](=O)[O-])o2)cc1)C(=O)O,,H37Rv,,inhibition,6.25 µg/mL,0%
Cc1nn(-c2ccccc2)c2c1C(c1ccc(Cl)cc1)C(C#N)=C(N)O2,,H37Rv,,inhibition,62.5 µg/mL,29%
CC(C)c1ncc(C(=O)O)[nH]1,,H37Rv,,inhibition,6.25 µg/mL,3%
O=C(CNC(=O)C(CO)NC(=O)C(Cc1cncn1C(=O)OCc1ccccc1)NC(=O)OCc1ccccc1)Oc1ccc([N+](=O)[O-])cc1,,H37Rv,BACTEC,MIC,,≥12.8 µg/mL
O=C(c1ccncc1)N(NCc1cccc(Cl)c1)C(=O)c1cnccn1,,9 isolates (sensitive),,MIC,,0.25 µg/mL
CCOC(=O)c1c(-c2ccccc2)cc2c3ccccc3ccn12,,H37Rv,agar,MIC,,17.3 µM
Cc1nn(-c2ccccc2)c2c1C(c1cccc(Cl)c1)c1c(nc(=O)[nH]c1N)O2,,H37Rv,,inhibition,62.5 µg/mL,73%
COc1cc(/C=N/N(C(=O)c2ccncc2)C(=O)c2cnccn2)ccc1O,,9 isolates (sensitive),,MIC,,2–4 µg/mL
CC[C@H]1OC(=O)[C@H](C)[C@@H](O[C@H]2C[C@@](C)(OC)[C@@H](O)[C@H](C)O2)[C@H](C)[C@@H](O[C@@H]2O[C@H](C)C[C@H](N(C)C)[C@H]2O)[C@](C)(OC)C[C@@H](C)C(=O)[C@H](C)[C@@H](O)[C@]1(C)O,,H37Rv,,MIC,,20 µg/mL
CN1CCC(CNC(=O)CCCCCCCCC(=O)NCC2(c3ccccc3)CCN(C)CC2)(c2ccccc2)CC1,,H37Rv,BACTEC,MIC bound,,>6.25 µg/mL
CCOC(=O)C1C(c2cc3cc(C)ccc3nc2Cl)C2=C(CCCC2=O)N(c2cccnc2)C1N,,H37Rv,,inhibition,6.25 µg/mL,74%
O=C1C=CC(O)(c2cc3ccccc3[nH]2)C=C1,,H37Rv,,EC50,,<6.25 µg/mL
CCc1cc(C(N)=S)ccn1,,90-0216 (drug-susceptible),,MIC,,0.25 µg/mL
COC(=O)c1ccc(NC(=O)CCl)cc1S(=O)(=O)NC(=O)Nc1nccc(OC)n1,,H37Rv,,MIC,,>80 µg/mL
O=[N+]([O-])c1ccc(CSc2ncn[nH]2)c([N+](=O)[O-])c1,,My 331/88,,MIC,,32 µM
NNC(=O)C(=O)N=Cc1ccc([N+](=O)[O-])o1,,PZA-R,,MIC,,3.1 µg/mL
Cc1[nH]n(-c2ccccc2)c(=O)c1N=Nc1ccc(-c2n[nH]c(=S)n2C)cc1,,H37Rv,,EC50,,>6.25 µg/mL

Repeating the first 11 entries:

SMILES,cell line,strain,read by,measure,dose,value
CC(=O)OC1(c2ccccc2)C=CC(=O)C=C1,,H37Rv,,MIC,,>6.25 µg/mL
Cc1ccc([N+](=O)[O-])cc1NC(=O)NNC(=O)CNC(=O)c1ccc(Cl)cc1,,H37Rv,BACTEC,MIC bound,,>12.5 µg/mL
O=C(c1ccncc1)N(/N=C/c1cccc([N+](=O)[O-])c1)C(=O)c1cnccn1,,9 isolates (resistant),,MIC,,>16 µg/mL
O=C(O)c1nc(C2CCCC2)[nH]c1C1CCCC1,,H37Rv,,inhibition,6.25 µg/mL,0%
CCOC(=O)/C(N=Nc1ccc(-c2n[nH]c(=S)n2C)cc1)=C(\C)O,,H37Rv,,inhibition,6.25 µg/mL,1%
COc1ccc(/C=N/N(C(=O)c2ccncc2)C(=O)c2cnccn2)cc1,,9 isolates (sensitive),,MIC,,1–2 µg/mL
CCC(C)c1c(NC(C)=O)o[nH]c1=O,,H37Rv,BACTEC,MIC bound,,>12.5 µg/mL
N=C1C=CC(O)(c2nc3ccccc3s2)C(SCC(NC(=O)CCC(N)C(=O)O)C(=O)NCC(=O)O)C1,,H37Rv,,inhibition,6.25 µg/mL,28%
N#Cc1c(-c2ccc(Cl)cc2)c([N+](=O)[O-])c2c3ccccc3ccn12,,H37Rv,agar,MIC,,9 µM
CN[C@@H]1[C@H](O[C@H]2[C@H](O[C@H]3[C@H](O)[C@@H](O)[C@H](N=C(N)N)[C@@H](O)[C@@H]3N=C(N)N)O[C@@H](C)[C@]2(O)C=O)O[C@@H](CO)[C@H](O)[C@H]1O,,05001 (H37RV),,MIC,,25 µg/mL
N#CC1C(c2cc3ccccc3nc2Cl)C2=C(CCCC2=O)N(c2cccnc2)C1N,,H37Rv,,inhibition,6.25 µg/mL,12%